PubChem BioAssay AID1259414 – Drosophila RNAi Screening Center | 2018
Assay: 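Genome-wide screen for host control of endosymbiont load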 (primary screen). Cell system: Drosophila JW18 cells infected with Wolbachia. Knock-down reagent: long dsRNA against Drosophila genes, 0.25 µg dsRNA per well of a 384-well plate. Timing: 5 days. Challenge: cells persistently infected with Wolbachia before knock-down; no added drug. Read-out: 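Automated imaging of bacterial rRNA staining divided by host cell count, reported as plate-normalised robust z-score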. Scale: Wolbachia per cell robust z: higher = more Wolbachia per host cell than the plate typical. Active means: 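Hit when robust z is 1.5 or more, or -1.5 or less, in at least two of three replicates; excludes dsRNAs with several or no targets, genes not expressed in JW18 and well A1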.
The screen tested about 24,000 reagents; this is a random part of those that have a named target and a result. In the full data, about 1,210 (5%) got an active call. 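Inactive calls also include excluded dsRNAs with several or no targets, genes unexpressed in JW18, and well A1, regardless of score.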 The numbers tell different reagents against one gene apart. Names joined by + are all predicted targets of the reagent. No sequences are given here.

The first 2 entries, to show the layout:
gene knocked down | reagent no. | Wolbachia per cell robust z, rep 1 | Wolbachia per cell robust z, rep 2 | Wolbachia per cell robust z, rep 3 | activity call
CG4984 + CG4975 | 1 | -1.9 | -2.09 | -1.7 | inactive
CG4984 + CG4975 | 2 | -5.43 | 0.903 | -0.137 | inactive

The listing, from the start:
gene knocked down | reagent no. | Wolbachia per cell robust z, rep 1 | Wolbachia per cell robust z, rep 2 | Wolbachia per cell robust z, rep 3 | activity call
CG4984 + CG4975 | 1 | -1.9 | -2.09 | -1.7 | inactive
CG4984 + CG4975 | 2 | -5.43 | 0.903 | -0.137 | inactive
dmGlut (Dietary and metabolic glutamate transporter) | 1 | -3.46 | -0.0995 | -11.5 | active
dmGlut (Dietary and metabolic glutamate transporter) | 2 | -0.557 | -0.313 | -1.89 | inactive
CG12170 | 1 | -2.53 | 0.235 | -0.131 | inactive
CG12170 | 2 | -0.138 | 0.207 | -1.88 | inactive
Sos (Son of sevenless) | 1 | -2.94 | 1.28 | 1.38 | inactive
Sos (Son of sevenless) | 2 | 1.58 | 1.47 | 3.86 | active
Sos (Son of sevenless) | 3 | -2.18 | -0.524 | -6.51 | inactive
CG7810 | 1 | 0.518 | 0.69 | 0.608 | inactive
CG7810 | 2 | 0.772 | 0.129 | 0.583 | inactive
Bin1 (Bicoid interacting protein 1) | 1 | -1.06 | -0.189 | -1.35 | inactive
fj (four-jointed) | 1 | 0.262 | 0.179 | 1.17 | inactive
fj (four-jointed) | 2 | -0.163 | -0.783 | -6.15 | inactive
fj (four-jointed) | 3 | 0.695 | 0.744 | 0.135 | inactive
CG18231 | 1 | 0.689 | -0.127 | 0.548 | inactive
betaTub60D (beta-Tubulin at 60D) | 1 | -0.328 | 0.254 | -6.85 | inactive
betaTub60D (beta-Tubulin at 60D) | 2 | 1.1 | -0.289 | -0.736 | inactive
betaTub60D (beta-Tubulin at 60D) | 3 | 0.405 | 1.79 | -0.437 | inactive
betaTub60D (beta-Tubulin at 60D) | 4 | -1.2 | 0.698 | -1.76 | inactive
CG4198 | 1 | -1.28 | 0.641 | -2.45 | inactive
CG4198 | 2 | -1.3 | -0.0579 | 1.66 | inactive
Pdfr (Pigment-dispersing factor receptor) | 1 | 0.617 | -5.89 | 0.508 | inactive
Cpr76Ba (Cuticular protein 76Ba) | 1 | -0.502 | 0.965 | -0.565 | inactive
Cpr76Ba (Cuticular protein 76Ba) | 2 | 0.885 | -0.175 | -0.0135 | inactive
ATP8A (ATPase 8A) | 1 | -0.895 | -6.26 | -1.41 | inactive
ATP8A (ATPase 8A) | 2 | -0.0959 | 0.0639 | 0.838 | inactive
ATP8A (ATPase 8A) | 3 | -2.8 | -3.03 | -1.95 | inactive
